Anti-infective test results gathered from many reports (values: NIAID ChemDB through PubChem).

All rows: tests in culture; species: Mycobacterium avium; measure: MIC

Rows are shuffled and stem from different studies. Blank or dashed fields: not listed here.

SMILES | conditions | strain or isolate | value
N#Cc1cnc(C(N)=O)c(NC2CCCCCC2)n1 | - | 80/72 | >100 µg/mL
O=C(Nc1ccc(Cl)c(Cl)c1)c1ccccc1O | - | CNCTC MY330/88 | 16 µM
O=c1oc2ccc(F)cc2c(=S)n1-c1ccc(Cl)c(Cl)c1 | 14 d | MY330/88 | 8 µM
c1ccc(C(Cn2ccnc2)NCc2cccc3ccccc23)cc1 | - | CIP103317 | 8 µg/mL
C(/C=C/c1ccccc1)=Nc1ccccc1CN1CCOCC1 | - | 103317 | 16 µg/mL
CC(C)(C)n1cc(C(=O)O)c(=O)c2cc(F)c(N3CCNCC3)nc21 | - | RG3 | 0.5 µg/mL
CCCCCN1C(=S)C(=O)c2ccccc21 | - | CNCTC MY80/72 | 63 µM
Cc1c(CN2CCSCC2)cc(-c2cccc3ccccc23)n1-c1ccccc1 | - | - | >16 µg/mL
CCCCCCCCSc1cc(C(N)=S)cc(Br)n1 | - | 80/72 | 250 µM
Clc1ccc(C(Cn2ccnc2)NC/C=C/c2ccccc2)c(Cl)c1 | - | CIP103317 | >16 µg/mL
O=c1oc2ccc(F)cc2c(=S)n1-c1cccc(F)c1 | 21 d | MY330/88 | 16 µM
Fc1ccc(C(Cn2ccnc2)NCc2cccc3ccccc23)cc1 | - | CIP103317 | 8 µg/mL
C(/C=C/c1ccccc1)=Nc1ccc(CN2CCOCC2)cc1 | - | 103317 | 8 µg/mL
Cc1c(CN2CCSCC2)cc(-c2ccccc2)n1-c1ccc(F)cc1 | - | 103317 | 2 µg/mL
C(=C\c1ccccc1)/CNc1cccc(Cn2ccnc2)c1 | - | 103317 | 2 µg/mL
O=C(NCc1cccc(C(F)(F)F)c1)c1ccccc1O | - | MY330/88 | 16 µg/mL
COc1cccc(Nc2nc(C#N)cnc2C(N)=O)c1 | - | 80/72 | >100 µg/mL
N/C(=N\N=C\c1cccc(Br)c1)c1ccncc1 | - | Isoniazid/rifampicin/ofloxacin-resistant | 16 µg/mL
C(=C\c1ccccc1)/CNC(Cn1ccnc1)c1ccccc1 | - | CIP103317 | >16 µg/mL
Cc1cccc(O)c1C(=S)NCc1ccc(Cl)cc1 | - | MY330/88 | 1 µg/mL
O=C(Nc1ccc(Br)cc1)c1ncccc1S | - | CNCTC MY330/88 | 32 µM
O=Cc1coc2ccc(F)cc2c1=O | - | MY330/88 | >1000 µM
Cc1c(CN2CCSCC2)cc(-c2ccccc2F)n1-c1ccccc1F | - | - | >16 µg/mL
Clc1ccc(C(Cn2ccnc2)NCc2cccc3ccccc23)cc1 | - | CIP103317 | 8 µg/mL
N#Cc1cnc(C(N)=O)c(Nc2ccccc2)n1 | - | 80/72 | >100 µg/mL
CCOc1c(N2CCC(C(C)(C)N)C2)c(F)cc2c(=O)c(C(=O)O)cn(C3CC3)c12 | - | RG0 | 1 µg/mL
O=Cc1coc2ccc([N+](=O)[O-])cc2c1=O | - | MY330/88 | 1000 µM
C/C=C\C#CC#C/C=C/C(=O)OC | - | - | 50 µg/mL
O=C(Oc1cc(Cl)ccc1C(=O)Nc1ccc(C(F)(F)F)cc1)c1cnccn1 | 14 d | 330/88 | 4 µM
CN1CCN(Cc2cccc(NC/C=C/c3ccccc3)c2)CC1 | - | 103317 | 32 µg/mL
NC(=O)c1ncc(C(N)=S)nc1N1CCCC1 | - | 80/72 | >100 µg/mL
O=C(Oc1ccc(Cl)cc1C(=O)Nc1cccc(F)c1)c1cnccn1 | 14 d | 330/88 | 8 µM
O=C(Nc1ccc(F)cc1)c1ncccc1O | - | CNCTC MY330/88 | 125 µM
O=C(Oc1cc(Cl)ccc1C(=O)Nc1cccc(Br)c1)c1cnccn1 | 14 d | 330/88 | 8 µM
O=C(Nc1cccc([N+](=O)[O-])c1)c1ccccc1O | - | CNCTC MY330/88 | 31 µM
Oc1cc(Cl)ccc1C(=S)NCc1ccc(F)cc1 | - | MY330/88 | 8 µg/mL
NNC(=O)c1ccncc1 | 21 d | 330/88 | >250 µM
CC[C@H]1OC(=O)[C@H](C)C(=O)[C@H](C)[C@@H](O[C@@H]2O[C@H](C)C[C@H](N(C)C)[C@H]2O)[C@](C)(OC)C[C@@H](C)C(=O)[C@H](C)[C@H]2N(CCCCn3cnc(-c4cccnc4)c3)C(=O)O[C@]12C | - | Isolate 1110 | 20 µg/mL
O=C(Nc1cccc(F)c1)c1ccccc1O | - | CNCTC MY330/88 | 62.5 µM
O=C(Oc1ccc(Cl)cc1C(=O)Nc1ccc(Cl)c(Cl)c1)c1cnccn1 | 21 d | 330/88 | 16 µM
COc1ccc2oc(=S)n(-c3ccc(Cl)cc3)c(=S)c2c1 | 21 d | MY330/88 | 62.5 µM
CC(C)c1c(O)cc(C(N=C(N)N)C(=O)NCC(=O)O)cc1O | - | Strain #2 | 3.13 µg/mL
O=Cc1coc2ccccc2c1=O | - | MY330/88 | 1000 µM
C(/C=C/c1ccccc1)=Nc1ccccc1Cn1ccnc1 | - | 103317 | 16 µg/mL
CCCCCCSc1cc(C(N)=S)cc(SCC)n1 | - | 80/72 | 60 µM
NC(=O)c1ncc(C(N)=S)nc1Nc1ccc(O)cc1 | - | 80/72 | 100 µg/mL
Cc1c(CN2CCSCC2)cc(-c2ccc(F)cc2)n1-c1ccccc1 | - | - | >16 µg/mL
CCCCCCSc1cc(C(N)=S)cc(Cl)n1 | - | 80/72 | 60 µM
NC[C@H]1O[C@H](O[C@H]2[C@H](O)[C@@H](O[C@H]3O[C@H](CO)[C@@H](O)[C@H](N)[C@H]3O)[C@H](N)C[C@@H]2N)[C@H](O)[C@@H](O)[C@@H]1O | - | Strain #2 | 0.39 µg/mL
O=C(Nc1ccc(Cl)cc1)c1ccccc1O | - | CNCTC MY330/88 | 31 µM
C/C=C(/C)C(=O)OC/C=C\C#CC#C/C=C\C(=O)OC | - | - | 25 µg/mL
O=c1oc2ccc(Br)cc2c(=S)n1-c1ccc(Cl)c(Cl)c1 | 14 d | MY330/88 | 32 µM
CCOc1cccc(NC(=O)OCCN2CCOCC2)c1 | - | MY330/88 | 500 µM
CN1CCN(Cc2ccc(NC/C=C/c3ccccc3)cc2)CC1 | - | 103317 | 8 µg/mL
CCCCCCSc1cc(C(N)=S)cc(SCCCC)n1 | - | 80/72 | 125 µM
CO[C@H]1/C=C/O[C@@]2(C)Oc3c(C)c(O)c4c(O)c(cc(O)c4c3C2=O)NC(=O)/C(C)=C\C=C\[C@H](C)[C@H](O)[C@@H](C)[C@@H](O)[C@@H](C)[C@H](OC(C)=O)[C@@H]1C | - | Firenze 10 | 0.1 µg/mL
Cc1ccc(Nc2nc(C#N)cnc2C(N)=O)cc1[N+](=O)[O-] | - | 80/72 | >100 µg/mL
N/C(=N\N=C\c1ccc(Br)cc1)c1ccncc1 | - | Isoniazid/rifampicin/ofloxacin-resistant | 64 µg/mL
C/C=C(\C)C(=O)OC/C=C\C#CC#C/C=C\C(=O)OC | - | - | >100 µg/mL
Fc1ccc(-n2c(=S)oc3ccc(Cl)cc3c2=S)cc1 | 14 d | MY330/88 | 16 µM
CCCOc1cccc(NC(=O)OCCN2CCOCC2)c1 | - | MY330/88 | 500 µM
Clc1ccc(C(Cn2ccnc2)NCc2cccc3ccccc23)c(Cl)c1 | - | CIP103317 | 8 µg/mL
CSC(SSC(S)C(N)=O)C(N)=O | - | 225 | 120 µM
CC(C)(C)c1ccc(CNC(=S)c2c(O)cc(Cl)cc2Cl)cc1 | - | MY330/88 | 62.5 µg/mL
CSc1cc(C(N)=O)cc(Br)n1 | - | 80/72 | >1000 µM
COc1ccccc1/C=N/N=C(\N)c1ccncc1 | - | Isoniazid/rifampicin/ofloxacin-resistant | 64 µg/mL
CCCCN(CCCC)c1nc(C(N)=S)cnc1C(N)=O | - | 80/72 | >100 µg/mL
N#Cc1cnc(C(N)=O)c(Nc2ccc(Cl)cc2)n1 | - | 80/72 | >100 µg/mL
O=C(Nc1ccc(Cl)cc1)c1ncccc1S | - | CNCTC MY330/88 | 32 µM
CCOC(=O)/C(N=Nc1ccc(C(=O)N/N=C/c2ccc([N+](=O)[O-])o2)cc1)=C(\C)O | - | - | >12.5 µg/mL
CCCCCCCCOc1ccccc1NC(=O)OCCN1CCCCC1 | - | MY330/88 | 32 µM
NC(=O)c1ncc(C(N)=S)nc1N1CCOCC1 | - | 80/72 | >100 µg/mL
CCCCCCCCOc1ccc(NC(=O)OCCN2CCCCCC2)cc1 | - | MY330/88 | 8 µM
CCSc1cc(C(N)=S)cc(Br)n1 | - | 80/72 | 500 µM
CCCCCCCCOc1ccc(NC(=O)OCCN2CCCCC2)cc1 | - | MY330/88 | 8 µM
CCN(CC)c1nc(C(N)=S)cnc1C(N)=O | - | 80/72 | >100 µg/mL

Repeating the final 10 entries:

SMILES	conditions	strain or isolate	value
CCCCN(CCCC)c1nc(C(N)=S)cnc1C(N)=O	-	80/72	>100 µg/mL
N#Cc1cnc(C(N)=O)c(Nc2ccc(Cl)cc2)n1	-	80/72	>100 µg/mL
O=C(Nc1ccc(Cl)cc1)c1ncccc1S	-	CNCTC MY330/88	32 µM
CCOC(=O)/C(N=Nc1ccc(C(=O)N/N=C/c2ccc([N+](=O)[O-])o2)cc1)=C(\C)O	-	-	>12.5 µg/mL
CCCCCCCCOc1ccccc1NC(=O)OCCN1CCCCC1	-	MY330/88	32 µM
NC(=O)c1ncc(C(N)=S)nc1N1CCOCC1	-	80/72	>100 µg/mL
CCCCCCCCOc1ccc(NC(=O)OCCN2CCCCCC2)cc1	-	MY330/88	8 µM
CCSc1cc(C(N)=S)cc(Br)n1	-	80/72	500 µM
CCCCCCCCOc1ccc(NC(=O)OCCN2CCCCC2)cc1	-	MY330/88	8 µM
CCN(CC)c1nc(C(N)=S)cnc1C(N)=O	-	80/72	>100 µg/mL